System: biomarker (antibody) in serum from patients with suspected TB (tuberculosis)
Assay: ELISA of 64 serum samples on three synthetic antigens (Example 6)
Format: binding, human
Details: dilution 1 in 80
Description: ELISA assays were carried out as known to those practiced in the art using 96 well plates. In the first procedure, the ELISA assay was carried out on 96-well microplates and the purified antigens were dissolved in n-hexane at a concentration of 62.5 μg/mL. The antigen solution was diluted and 50 μL was placed in each well. The plates were left to dry at room temperature overnight. Blocking was done with 0.5% casein/PBS (400 μL/well) and the plates were left to incubate at 25° C. for 1 h. The casein was aspirated using the LT-3500 plate washer and the plates flicked dry. Then the serum (1:20 dilution in 0.5% casein/PBS, pH 7.4) was added to the plate (50 μL/well) and left to incubate at 25° C. for 1 h. The serum was aspirated and washed three times with (casein/PBS, 400 μL/well) using the same plate washer and the plates were flicked dry again. After that, the secondary antibody, in the example given IgG Fc (1:1000 dilution in 0.5% casein/PBS) was added to the plate (50 μL/well) and the plates were left to incubate at 25° C. for 30 min. The plates were washed three times again with casein/PBS (400 μL/well) and dried. Then, the OPD substrate was added to the plates, which were left to incubate at 25° C. for 30 min. Finally, 2.5 M H2SO4 (50 μL/well) was added and the absorbances of each well were read at 492, 450 and 630 nm using an LT-4000 plate reader. […]

SMILES: CCCCCCCCCCCCCCCCCCCCCCCC[C@@H](C(=O)OC[C@H]1O[C@H](OC)[C@@H](O)[C@@H]1O)[C@H](O)CCCCCCCCCCCC1CC1CCCCCCCCCCCCCC[C@H]1C[C@H]1CCCCCCCCCCCCCCCCCCCC (some centres unmarked) [Antigen 3]
- Individual Sensitivity: 100%
- Individual Specificity: 80%

From patent US11162944B2, “Compositions and methods” (priority 2015, dated 2021)
